PubChem BioAssay AID504761 | Drosophila RNAi Screening Center, 2011
The deposit covers about 22,000 reagents; shown is a random part of those with a known target gene and a result. Of all reagents, 116 (0.52%) are marked active. 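Calls depend on retest data that are not deposited; infection was ranked per plate without normalising between plates; the unit of the infection score is not given.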 Raw values are not corrected between plates. Entries without a mark were called inactive. Names joined by + are all predicted targets of the reagent. Not stated in the record: the amount of reagent, the time to read-out.

Assay: 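Insect host genes that dengue virus relies on to spread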 (primary screen)
System: D.Mel-2 cells from Drosophila
Reagents: long dsRNA against Drosophila genes
Conditions: infection with dengue virus type 2; dose and infection time not stated
Measured: 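Cells stained for dengue envelope protein and imaged; percent of infected cells per well on duplicate plates, ranked by infection, with stained nuclei counted for cell number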
Scale: infection score: higher = more virus-infected cells; cell count: higher = more cells in the well
Call rule: 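Very low infection ranking in both replicate wells (chance probability at most 0.065), then a retest showing infection dropped 1.5-fold or more at p below 0.05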
Calls: active = confirmed: knock-down lowers infection; inactive = not picked or not confirmed

target gene | DRSC id | infection score, replicate 1 | infection score, replicate 2 | cell count, replicate 1 | cell count, replicate 2
RpL10Aa | DRSC15518 | 7.71 | 20.5 | 7042 | 4286
eco | DRSC11006 | 6.21 | 3.5 | 5235 | 5655
CG14695 | DRSC14918 | 2.57 | 32.2 | 6530 | 5576
CG13255 | DRSC11702 | 9.52 | 9.79 | 6736 | 6321
Nlg3 | DRSC12524 | 5.07 | 4.23 | 6769 | 6376
Nlg3 | DRSC12540 | 6.57 | 3.82 | 6367 | 5993
Nlg3 | DRSC12574 | 5.93 | 3.26 | 6394 | 6449
Nlg3 | DRSC25678 | 12.5 | 16.4 | 6681 | 6163
Grx5 | DRSC19593 | 7.43 | 3 | 6525 | 6541
Rab19 | DRSC11260 | 2.02 | 1.2 | 5889 | 6166
Rab19 | DRSC29485 | 5.99 | 3 | 851 | 700
Eip63E | DRSC08658 | 17.4 | 1.2 | 4966 | 585
P5CDh1 | DRSC11801 | 9.22 | 12.3 | 5833 | 6700
CG5946 | DRSC10560 | 2.82 | 4.06 | 5705 | 6333
Ilp7 | DRSC17895 | 5.99 | 12.2 | 6307 | 6247
mRpL37 | DRSC16062 | 5.33 | 28.1 | 4837 | 4282
CG2200 | DRSC19840 | 0.73 | 5.68 | 6446 | 6198
Elba1 | DRSC00276 | 8.28 | 1.36 | 6231 | 6817
Elba1 | DRSC24062 | 1.95 | 2.63 | 6620 | 6085
CG9331 | DRSC03206 | 18.3 | 32 | 6613 | 6410
CG9331 | DRSC28815 | 12.3 | 0.21 | 2610 | 481
RagA-B | DRSC14450 | 2.44 | 6.32 | 6520 | 7042
enok | DRSC04096 | 10.3 | 26.7 | 6277 | 5223
CG7215 + Prx5 | DRSC16214 | 1.2 | 7.54 | 6003 | 6496
CG7215 + Prx5 | DRSC16215 | 7.61 | 32.2 | 1865 | 5147
CG6761 | DRSC10705 | 6.13 | 5.34 | 6557 | 6333
Ugt36A1 | DRSC00748 | 4.11 | 5.41 | 6454 | 6376
Ugt36A1 | DRSC29161 | 6.6 | 13.8 | 5497 | 1315
sfl | DRSC08828 | 0.55 | 0.2 | 6048 | 5987
sfl | DRSC08830 | 0.37 | 0.26 | 5634 | 5698
sfl | DRSC25916 | 1.55 | 1.99 | 6073 | 5841
CG3021 | DRSC18165 | 5.59 | 12.8 | 4397 | 5119
CG3021 | DRSC18652 | 3.28 | 8.18 | 6133 | 2275
PH4alphaEFB | DRSC14473 | 20.3 | 9.12 | 5824 | 6044
PH4alphaEFB | DRSC14950 | 6.65 | 3.99 | 5791 | 5516
CG12498 | DRSC18635 | 11.7 | 11.8 | 4153 | 5643
CG32295 | DRSC23259 | 8.3 | 12.5 | 7286 | 6798

The list goes on (7 carried over from the part before).
target gene | DRSC id | infection score, replicate 1 | infection score, replicate 2 | cell count, replicate 1 | cell count, replicate 2
sfl | DRSC25916 | 1.55 | 1.99 | 6073 | 5841
CG3021 | DRSC18165 | 5.59 | 12.8 | 4397 | 5119
CG3021 | DRSC18652 | 3.28 | 8.18 | 6133 | 2275
PH4alphaEFB | DRSC14473 | 20.3 | 9.12 | 5824 | 6044
PH4alphaEFB | DRSC14950 | 6.65 | 3.99 | 5791 | 5516
CG12498 | DRSC18635 | 11.7 | 11.8 | 4153 | 5643
CG32295 | DRSC23259 | 8.3 | 12.5 | 7286 | 6798
CG31549 | DRSC21688 | 1.18 | 11.1 | 6178 | 6361
bru3 | DRSC09280 | 8.82 | 2.57 | 6267 | 7012
bru3 | DRSC09687 | 7.63 | 10.8 | 5977 | 6528
bru3 | DRSC09887 | 0.52 | 0.72 | 6578 | 6845
bru3 | DRSC22732 | 3.72 | 7.19 | 7392 | 6578
bru3 | DRSC28166 | 26.8 | 19.4 | 5467 | 6901
PH4alphaNE1 | DRSC16546 | 3.62 | 3.11 | 5995 | 6371
PH4alphaNE1 | DRSC26942 | 2.41 | 2.72 | 6345 | 6468
CG33458 | DRSC22891 | 2.25 | 4.42 | 5899 | 6216
CG31064 | DRSC14756 | 1.62 | 5.76 | 6682 | 6721
CG31064 | DRSC15941 | 0.38 | 1.29 | 7013 | 7381
CG31064 | DRSC15942 | 2.96 | 2.13 | 6824 | 7044
CG31064 | DRSC15943 | 3.98 | 4.03 | 6084 | 6458
CG15458 | DRSC20529 | 2.59 | 0.33 | 6091 | 5993
CG30430 | DRSC22260 | 0.21 | 0.66 | 6648 | 6701
CG14297 | DRSC14776 | 10.5 | 0.57 | 4952 | 6148
CG9586 | DRSC03270 | 0.81 | 3.84 | 5950 | 6615
CG9586 | DRSC30001 | 14.9 | 16.6 | 6247 | 6412
CG8661 | DRSC20115 | 2.08 | 4.51 | 6571 | 6565
CG8661 | DRSC29778 | 21.7 | 13.9 | 5891 | 5685
CG5541 | DRSC19946 | 5.7 | 2.05 | 6455 | 6597
CG43894 | DRSC10123 | 2.42 | 0.88 | 6274 | 6216
CG43894 | DRSC25029 | 5.07 | 16.7 | 5898 | 6149
Rif1 | DRSC05593 | 0.8 | 2.26 | 6342 | 5890
Noc3 | DRSC12535 | 5.97 | 12.6 | 5613 | 5173
CG10527 | DRSC04078 | 17.9 | 33.1 | 6722 | 5400
CG10527 | DRSC27160 | 12.1 | 6.46 | 5640 | 6916
Taf6 | DRSC11299 | 9.53 | 29.2 | 4479 | 4423
Not11 | DRSC04204 | – | – | 455 | 403
Acbp2 | DRSC11141 | 3.27 | 1.71 | 6263 | 6090
Acbp2 | DRSC24352 | 0.85 | 1.16 | 6673 | 6320
tbrd-3 | DRSC04295 | 7.69 | 18.6 | 5822 | 6576
tbrd-3 | DRSC26310 | 6.26 | 12.4 | 4039 | 6334
nol | DRSC21425 | 2.13 | 4.43 | 6580 | 6688
nol | DRSC25423 | 4.54 | 3.66 | 5814 | 6447
Nf-YC | DRSC23106 | 2.06 | 2.22 | 6420 | 7382
Cpr100A | DRSC14465 | 2.57 | 3.27 | 6142 | 6707
Cpr100A | DRSC28530 | 10.6 | 19.6 | 5867 | 6144
